# Patent publication US7732458B2 (priority 2004, dated 2010)
# Tested on: HIV-1 III B
# Assay: Inhibition of HIV-induced MT4 cell pathological effects (CPE)
# Type: cell-based
# Conditions: selective index TC50/IC50
# Experimental: HIV-1 III B comes from the USA; MT4 cell line comes from Japan.
# To determine viral toxicity, HIV are diluted 10 fold in 8 serial [Chinese version is unclear, and this is an educated guess] and MT4 cell pathological effects are then observed in the culture solution of RPMI-1640. Calculated TCID50 is 10-6. The normal cell control group and virus control group are also performed. The samples with five concentrations per group that are diluted by 2 times and 100 μl AZT are added in cell or virus cultures. All concentrations of samples are performed in three repeated wells. The experiments are maintained at 37° C., 5 percent CO2 for 72 hours. Then the cell pathological effects (CPE) are observed under an inverted microscope. IC50 and selective index SI (TC50/IC50) are calculated in Table 7.
row,Compound,SI
1,"Cc1cn([C@H]2C[C@H](N=[N+]=[N-])[C@@H](CO)O2)c(=O)[nH]c1=O [AZT, zidouvding, reference compound]",5000
2,COc1cc2c(cc1OC)-c1c(C)c3ccc4c(c3c[n+]1CC2)OCO4 [dehydrocavidine],>80
3,COc1cc2cc[n+]3cc4c5c(ccc4c(C)c3c2cc1O)OCO5 [dehydroapocavidine],40
